Key:
[1] = system: CSC[C@H]1O[C@@H](n2cnc3c(N)ncnc32)[C@H](O)[C@@H]1O; assay: purified protein; conditions: 100 mM potassium phosphate pH 7.4, room temperature
[2] = system: Nc1ncnc2c1ncn2[C@@H]1O[C@H](CO)[C@@H](O)[C@H]1O; assay: purified protein; conditions: 100 mM potassium phosphate pH 7.4, room temperature

Row | Substance | Km [1] [µM] | Vmax [1] [µM/min] | kcat [1] [s⁻¹] | kcat/Km [1] [M⁻¹ s⁻¹] | Km [2] [µM] | Vmax [2] [µM/min] | kcat [2] [s⁻¹] | kcat/Km [2] [M⁻¹ s⁻¹]
1 | SmMTAP (Schistosoma mansoni; Q289L) | 2.49 ± 0.1 | 0.0725 | 242 | 9.7e+07 | 1.81 ± 0.08 | 0.0359 | 95.8 | 
2 | SmMTAP (Schistosoma mansoni; N87T) | 0.71 ± 0.04 | 0.0317 | 84.6 | 1.19e+08 | 3.3 ± 0.21 | 0.0235 | 62.6 | 1.9e+07
3 | SmMTAP (Schistosoma mansoni; N87T/S12T) | 2.12 ± 0.08 | 0.0416 | 416 | 1.96e+08 | 3.68 ± 0.14 | 0.0309 | 309 | 8.39e+07
4 | SmMTAP (Schistosoma mansoni; S12T) | 1.22 ± 0.09 | 0.0544 | 145 | 1.19e+08 | 2.1 ± 0.13 | 0.0369 | 98.4 | 4.69e+07
5 | SmMTAP (Schistosoma mansoni; N87T/Q289L/S12T) | 3.12 ± 0.12 | 0.0254 | 254 | 8.14e+07 | 7.35 ± 0.36 | 0.028 | 280 | 3.81e+07
